PubChem BioAssay AID1259414, Drosophila RNAi Screening Center – 2018
Assay: 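Genome-wide screen for host control of endosymbiont load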 (primary screen). Cells: Drosophila JW18 cells infected with Wolbachia. Reagent: long dsRNA against Drosophila genes, 0.25 µg dsRNA per well of a 384-well plate. Time to read-out: 5 days. Treatment: cells persistently infected with Wolbachia before knock-down; no added drug. Detection: 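Imaged fluorescence in situ signal for Wolbachia 23S rRNA per DAPI-counted host cell, given as a robust z-score within each plate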. Direction: Wolbachia per cell robust z: higher = more Wolbachia per host cell than the plate typical. Rule for the call: 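Hit when robust z is 1.5 or more, or -1.5 or less, in at least two of three replicates; excludes dsRNAs with several or no targets, genes not expressed in JW18 and well A1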.
The screen tested about 24,000 reagents; shown is a random part of those that have a named target and a result. In the full data, about 1,210 (5%) are marked active. 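Inactive calls also include excluded dsRNAs with several or no targets, genes unexpressed in JW18, and well A1, regardless of score.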 Reagents against one gene are numbered here. A plus sign joins genes that one reagent is predicted to hit. Reagent sequences are not shown.

Target gene,dsRNA no.,"Wolbachia per cell robust z, rep 1","Wolbachia per cell robust z, rep 2","Wolbachia per cell robust z, rep 3",Outcome
nemy (no extended memory),1,0.394,1.58,-11.9,inactive
nemy (no extended memory),2,-6.62,-0.149,-3.55,active
nemy (no extended memory),3,0.915,1.14,0.113,inactive
Eglp2 (Entomoglyceroporin 2),1,-5.99,0.56,-0.403,inactive
Yp1 (Yolk protein 1),1,-0.743,-1.43,-0.248,inactive
Yp1 (Yolk protein 1),2,0.0678,-1,0.789,inactive
sca (scabrous),1,0.593,0.177,0.943,inactive
sca (scabrous),2,-0.979,0.366,0.692,inactive
CG1620,1,0.839,-0.000616,-0.197,inactive
CG1620,2,1.65,1.15,0.716,inactive
PIG-X (Phosphatidylinositol glycan anchor biosynthesis class X),1,0.632,-0.403,-1.02,inactive
CG33783,1,1.32,-0.758,-0.517,inactive
CG12017,1,-0.104,-0.388,-1.03,inactive
CG12017,2,-1.31,-2.92,-0.775,inactive
ND-13B (NADH dehydrogenase (ubiquinone) 13 kDa B subunit),1,-1.01,0.794,0.552,inactive
ND-13B (NADH dehydrogenase (ubiquinone) 13 kDa B subunit),2,0.491,-2.1,-1.36,inactive
CG18336,1,0.432,-2.51,-0.792,inactive
Mtap (Methylthioadenosine phosphorylase),1,0.499,0.0198,0.896,inactive
HHEX (Hematopoietically expressed homeobox),1,0.149,-1.2,1.34,inactive
HHEX (Hematopoietically expressed homeobox),2,-0.483,0.458,-0.238,inactive
snky (sneaky),1,-2.25,-1.86,1.25,inactive
CG31259,1,-0.542,0.479,0.331,inactive
FoxL1 (Forkhead box L1),1,1.1,1.45,-1.09,inactive
FoxL1 (Forkhead box L1),2,-0.313,-0.636,1.12,inactive
Pex13 (Peroxin 13),1,-5.41,-0.0854,-0.0431,inactive
CG9570,1,0.868,0.0532,0.53,inactive
Pus10 (Pseudouridine synthase 10),1,1.22,-8.16,1.03,inactive
lncRNA:CR32661 + lncRNA:CR43157,1,-1.76,-0.0286,0.0793,inactive
lncRNA:CR34006 (long non-coding RNA:CR34006),1,0.458,1.73,0.899,inactive
CG11841,1,0.823,1.07,-0.609,inactive
CG11841,2,-0.483,0.351,0.812,inactive
Tengl2 (Testis EndoG-Like 2),1,-0.702,-0.549,-0.723,inactive
Tengl2 (Testis EndoG-Like 2),2,-0.293,1.11,0.898,inactive
rho-7 (rhomboid-7),1,0.258,-0.74,0.393,inactive
Cdc5 (Cell division cycle 5),1,3.4,2.77,4.19,active
TTLL6A (Tubulin tyrosine ligase-like 6A),1,0.769,0.474,0.365,inactive
TTLL6A (Tubulin tyrosine ligase-like 6A),2,-1.44,-2.78,-0.678,inactive
Set8 (SET domain containing 8),1,-2.7,0.129,-0.0451,inactive
Set8 (SET domain containing 8),2,0.275,0.701,-4.56,inactive
Sf3b5 (Splicing factor 3b subunit 5),1,1.43,2.16,2.42,active
Tsp42Eh (Tetraspanin 42Eh),1,0.487,0.689,-4.07,inactive
CG15237,1,-0.839,-1.09,-0.00326,inactive
Amy-d + Amy-p,1,-0.147,0.731,-0.413,inactive
hwt (heavyweight),1,0.0358,-1.04,-0.216,inactive
hwt (heavyweight),2,0.46,0.543,-2.12,inactive
hwt (heavyweight),3,-0.875,0.312,-14.3,inactive
hwt (heavyweight),4,-3.88,-0.956,-1.19,inactive
hwt (heavyweight),5,0.251,-1.62,0.375,inactive
Cadps (Calcium-dependent secretion activator),1,0.44,-1.2,-0.164,inactive
Cadps (Calcium-dependent secretion activator),2,0.00915,-0.737,0.00257,inactive
Gr5a (Gustatory receptor 5a),1,0.321,0.731,0.368,inactive
Gr5a (Gustatory receptor 5a),2,0.83,0.212,0.99,inactive
"ATPsynCF6 (ATP synthase, coupling factor 6)",1,0.299,0.894,-4.17,inactive
Irp-1B (Iron regulatory protein 1B),1,-4.92,-4.74,-1.71,active
Irp-1B (Iron regulatory protein 1B),2,-1.22,-0.221,-1.33,inactive
CG13033,1,0.161,-0.684,-0.339,inactive
CG13033,2,1.01,0.332,0.886,inactive
pk (prickle),1,0.0574,-0.163,-5.21,inactive
pk (prickle),2,0.961,-0.171,-0.364,inactive
pk (prickle),3,-2.47,-1.27,0.177,inactive
Dhod (Dihydroorotate dehydrogenase),1,-0.414,0.623,-2.5,inactive
Nepl19 (Neprilysin-like 19),1,0.226,0.297,-1.32,inactive
Uba3 (Ubiquitin-like activating enzyme 3),1,-0.167,0.506,-0.858,inactive
CG4042,1,0.131,-0.584,0.562,inactive
CG4042,2,-1.9,-0.724,-2.51,active
DppIII (Dipeptidyl aminopeptidase III),1,-1.31,-3.16,-1.51,active
DppIII (Dipeptidyl aminopeptidase III),2,0.45,0.54,-0.572,inactive
CG10862,1,0.765,0.0892,0.363,inactive
CG31091,1,-0.417,0.783,-3.57,inactive
CG8399,1,0.984,-0.236,-0.139,inactive
CG7497,1,-2.05,-0.491,-0.705,inactive
CG7497,2,-0.737,0.232,1.78,inactive
CG3437,1,-0.161,-0.406,0.926,inactive
CG3437,2,0.5,1.17,1.37,inactive
CG42837 + CG44242 + Lipt1,1,-2.31,1.04,-0.0994,inactive
RYa-R (RYamide receptor),1,0.44,0.97,-0.503,inactive
ETH + asRNA:CR43257,1,0.24,0.0036,-0.407,inactive
ncm (nucampholin),1,7.95,-4.16,10.1,active
ncm (nucampholin),2,2.37,1.88,-4.51,active
Ubc87F (Ubiquitin conjugating enzyme 87F),1,0.452,-0.0726,0.579,inactive
Ubc87F (Ubiquitin conjugating enzyme 87F),2,0.161,-0.33,-0.541,inactive
heca (headcase),1,0.912,-0.556,-4.42,inactive
heca (headcase),2,0.193,1.53,0.636,inactive
PHDP (Putative homeodomain protein),1,-1.66,-0.269,-0.311,inactive
CG14130,1,-0.0871,-0.00206,-0.736,inactive
CG31704,1,-0.398,0.484,-0.549,inactive
repo (reversed polarity),1,0.799,1.58,0.749,inactive
repo (reversed polarity),2,-1.95,-0.919,0.895,inactive

As entered above:
Amy-d + Amy-p, Wolbachia per cell robust z, rep 2: 0.731
CG3437 #1, Wolbachia per cell robust z, rep 2: -0.406
hwt (heavyweight) #4, Wolbachia per cell robust z, rep 1 → -3.88
Result for CG42837 + CG44242 + Lipt1 under “Outcome”: inactive
For “Wolbachia per cell robust z, rep 3”, PIG-X (Phosphatidylinositol glycan anchor biosynthesis class X) reads -1.02
Under “Wolbachia per cell robust z, rep 3”, lncRNA:CR32661 + lncRNA:CR43157 is entered as 0.0793
